At least one result comes from cells or an extract, where the contact may be indirect. For part of these data: No signal at the amounts used counts as a negative. For part of these data: The exact form of at least one protein or probe is not confirmed. For part of these data: Weaker means in comparison with the reference protein, sequence or condition of that experiment. For part of these data: At least one verdict rests on a figure or table, not on a statement of the authors. For part of these data: Where a protein sequence is shown, tags need not be part of it.
Columns and labels:
Test in all cases: pull-down
[1] = target: HA-NCL-R10F R656F,R660F,R666F,R670F,R673F,R679F,R681F,R687F,R691F,R694F (Homo sapiens) (UniProt P19338); details: pull-down: RNA folded in 100 mM KCl, 90 min at room temperature, washes 200-800 mM KCl, protein in a lysate after overexpression, protein details: HA, label: 3' biotin-TEG
[2] = target: HA-NCL expressed in yeast (Homo sapiens) (UniProt P19338); details: pull-down: RNA folded in 100 mM KCl, 90 min at room temperature, washes 200-800 mM KCl, protein in a lysate after overexpression, protein details: HA, label: 3' biotin-TEG
[3] = target: HA-NCL-wt (H1299) (Homo sapiens) (UniProt P19338); details: pull-down: RNA folded in 100 mM KCl, 90 min at room temperature, washes 200-800 mM KCl, protein in a lysate after overexpression, protein details: HA, label: 3' biotin-TEG
[4] = target: HA-NCL-R10A R656A,R660A,R666A,R670A,R673A,R679A,R681A,R687A,R691A,R694A (Homo sapiens) (UniProt P19338); details: text: does not bind, legend: only residual binding; pull-down: RNA folded in 100 mM KCl, 90 min at room temperature, washes 200-800 mM KCl; protein in a lysate after overexpression; protein details: HA; label: 3' biotin-TEG
[5] = target: HA-NCLΔRGG expressed in yeast (Homo sapiens) (UniProt P19338); details: residual binding; pull-down: RNA folded in 100 mM KCl, 90 min at room temperature, washes 200-800 mM KCl; protein in a lysate after overexpression; protein details: HA; label: 3' biotin-TEG
[6] = target: T1, nsr1ΔRGG (Saccharomyces cerevisiae (Y32 rggΔ)) (UniProt P27476); details: residual binding, comparable with Nsr1 on GM; pull-down: RNA folded in 100 mM KCl, 90 min at room temperature, washes 200-800 mM KCl; protein in an extract; label: 3' biotin-TEG
T1 sequence (looked up, limits assumed): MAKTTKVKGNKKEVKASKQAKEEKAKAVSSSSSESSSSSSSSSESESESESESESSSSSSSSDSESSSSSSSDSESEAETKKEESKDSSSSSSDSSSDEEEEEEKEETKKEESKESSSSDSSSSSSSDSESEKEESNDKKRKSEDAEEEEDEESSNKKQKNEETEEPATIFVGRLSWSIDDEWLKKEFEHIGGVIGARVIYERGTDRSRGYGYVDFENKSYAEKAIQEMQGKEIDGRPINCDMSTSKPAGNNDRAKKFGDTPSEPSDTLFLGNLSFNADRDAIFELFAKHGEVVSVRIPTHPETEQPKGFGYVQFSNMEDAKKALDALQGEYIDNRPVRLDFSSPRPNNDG

GAGGCAGUAGCAGUAGAA [GM]
binding result ([1]; G4-dependent binding): binds more weakly | binding result ([2]; residual binding): binds more weakly | binding result ([3]; G4-dependent binding): binds more weakly

GGGGCAGGAGCAGGAGGA [GQ]
binding result ([1]; binds, less efficiently than wt): binds more weakly | binding result [2]: binds | binding result [4]: no binding | binding result [5]: binds more weakly | binding result [3]: binds | binding result [6]: binds more weakly

— paper PMC9723642
